This note sets out measurements from publication PMC12538275, “Fat or flat? The impact of dipole moment vectors on non-covalent interactions between aromatic tags and macromolecules” (Inorganic Chemistry Frontiers, 2025).

pKi: −log10 of the molar value. A value given as a limit tells only on which side of the number the result lay.

For the experiment, the target named is SmCB1 (Schistosoma mansoni, UniProt Q8MNY2, T185A/T300A). Particulars: read-out: Ki SmCB1; kinetic activity assay, triplicate, pH 5.5, 37 °C. An excerpt: Enzymatic activity was monitored either fluorometrically with peptide–AMC substrates, which release 7-amino-4-methylcoumarin (AMC) as a fluorescent product, or spectrophotometrically with peptide–pNA substrates, which liberate p-nitroaniline (pNA). Reaction rates were obtained from the slopes of the linear progress curves and expressed as relative fluorescence units per second (RFU s^−1) or as absorbance units per second (AU s^−1). […] The standard errors of measurements refer to the non-linear regression analysis.
A non-glycosylated mutant of the SmCB1 zymogen was expressed in the yeast Pichia pastoris, activated by S. mansoni legumain and purified as described previously.[25,43,58] Kinetic measurements were performed in triplicate in 96-well microplates (100 μL assay volume) at 37 °C. […] Substrate hydrolysis was measured fluorometrically in an Infinite M1000 microplate reader (Tecan) at excitation and emission wavelengths of 360 and 465 nm, respectively. Inhibition assays for human cathepsins and cruzain are described in Supplemental Experimental Procedures.

9-SH-closo-1,2-C2B10H11 [compound 2]: the negative logarithm of the Ki (pKi) (usually the negative decadic logarithm of the Ki, by convention in mol/L) is less than 4.00. With “closo-1,2-C2B10H12 [compound 1, reference compound]”, the pKi is less than 4.00.
